System: CfGluCl-1 (C. felis GluCl channel)
Assay: Two microelectrode voltage clamp of Xenopus oocytes expressing CfGluCl-1
Assay type: cell-based, Ctenocephalides felis
Conditions: experiment of FIG. 5B
Procedure: The full-length cDNA encoding CfGluCl-1 in plasmid vector pBluescript (Stratagene, LaJolla, Calif.) is linearized and capped cRNA transcripts are synthesized using appropriate oligonucleotide primers and the mMESSAGE mMACHINE in vitro RNA transcription kit (Ambion). Xenopus laevis oocytes were prepared and injected using standard methods as described (Arena et al., 1991, Mol. Pharmacol. 40: 368-374; Arena et al, 1992, Mol. Brain Res. 15: 339-348). Adult female Xenopus laevis were anesthetized with 0.17% tricaine methanesulfonate and the ovaries were surgically removed and placed in a dish consisting of (mM): NaCl 82.5, KCl 2, MgCl2 1, CaCl2 1.8, HEPES 5 adjusted to pH 7.5 with NaOH (OR-2). Ovarian lobes were broken open, rinsed several times, and gently shaken in OR-2 containing 0.2% collagenase (Sigma, Type IA) for 2-5 hours. When approximately 50% of the follicular layers were removed, Stage V and VI oocytes were selected and placed in media consisting of (mM): NaCl 86, KCl 2, MgCl2 1, CaCl2 1.8, HEPES 5, Na pyruvate 2.5, theophylline 0.5, gentamicin 0.1 adjusted to pH 7.5 with NaOH (ND-96) for […] before injection. For most experiments, oocytes were injected with 10 ng of cRNA in 50 nl of RNase free water. Control oocytes were injected with 50 nl of water. […]
Each curve represents the difference between the current measured with and without 10 μM glutamate. […]

`N[C@@H](CCC(=O)O)C(=O)O` [glutamate] was tested, and the “n (exponent of the concentration-response fit)” value was 2.13.
